A mixed list of measured activities; the numbers were collected in NIAID ChemDB.

Shared fields: tests in culture

Blank or dashed fields: not listed here.

compound,organism,endpoint,read by,conditions,strain,value
CC[C@H]1OC(=O)[C@H](C)[C@@H](OC(=O)c2ccccc2)[C@H](C)[C@@H](O[C@@H]2O[C@H](C)C[C@H](N(C)C)[C@H]2O)C(C)(O)C[C@@H](C)/C(=N\OCCCOc2ccccc2)[C@H](C)[C@@H](O)[C@]1(C)O,Mycobacterium avium complex,MIC,-,-,20092 (clarithromycin-resistant),6.25 µg/mL
O=C(NNC(=O)c1ccncc1)Nc1ccc(Br)c(F)c1,Mycobacterium kansasii,MIC100,broth dilution,7 d,My 6509/96,125 µM
CC[C@H]1OC(=O)[C@H](C)[C@@H](O[C@H]2C[C@@](C)(OC)[C@@H](OC(C)=O)[C@H](C)O2)[C@H](C)[C@@H](O[C@@H]2O[C@H](C)C[C@H](N(C)C)[C@H]2O)C(C)(O)C[C@@H](C)/C(=N\OCCCCc2ccccc2)[C@H](C)[C@@H](O)[C@]1(C)O,Mycobacterium avium intracellulare,MIC,-,-,20066 (clarithromycin-susceptible),1.56 µg/mL
Cc1ccn2c(C(=O)NC(C)c3ccc(N4CCOCC4)cc3)c(C)nc2c1,Mycobacterium ulcerans,MIC50,fluorescence,-,-,>10 µg/mL
CCCCCCCCNNC(=O)O[C@H]1[C@H](O[C@@H]2[C@@H](C)[C@H](O[C@H]3C[C@@](C)(OC)[C@@H](OC(C)=O)[C@H](C)O3)[C@@H](C)C(=O)O[C@H](CC)[C@@](C)(O)[C@H](O)[C@@H](C)/C(=N/OCCCC3CCCCC3)[C@H](C)CC2(C)O)O[C@H](C)C[C@@H]1N(C)C,Mycobacterium avium complex,MIC,-,-,20096 (clarithromycin-resistant),6.25 µg/mL
O=C(NNC(=O)c1ccncc1)Nc1ccc(Br)c(C(F)(F)F)c1,Mycobacterium kansasii,MIC100,broth dilution,14 d,My 6509/96,125 µM
CC[C@H]1OC(=O)[C@H](C)[C@@H](OC2C[C@@](C)(OC)[C@@H](O)[C@H](C)O2)[C@H](C)[C@@H](O[C@@H]2O[C@H](C)C[C@H](N(C)C)[C@H]2O)C(C)(OC)C[C@@H](C)/C(=N\OCCCOc2ccccc2)[C@H](C)[C@@H](O)[C@]1(C)O,Mycobacterium avium intracellulare,MIC,-,-,20066 (clarithromycin-susceptible),3.13 µg/mL
Cc1nc2ccc(Br)cn2c1C(=O)NCc1ccc(N2CCOCC2)cc1,Mycobacterium ulcerans,MIC50,fluorescence,-,-,0.01–0.1 µg/mL
CO[C@H]1/C=C/O[C@@]2(C)Oc3c(C)c(O)c4c(=O)c(c5oc6cc(N7CCN(CC(C)C)CC7)cc(=O)c6nc5c4c3=C2O)NC(=O)/C(C)=C\C=C\[C@H](C)[C@H](O)[C@@H](C)[C@@H](O)[C@@H](C)[C@H](OC(C)=O)[C@@H]1C,Mycobacterium ulcerans,MBC,-,-,ATCC 19423,0.025 µg/mL
CC(C)(C)c1ccc(NC(=O)NNC(=O)c2ccncc2)cc1,Mycobacterium kansasii,MIC100,broth dilution,21 d,My 6509/96,62.5 µM
CC1CN(c2ccc(CNC(=O)c3c(Cl)nc4ccccn34)cc2F)CC(C)O1,Mycobacterium ulcerans,MIC50,fluorescence,-,-,0.01–0.1 µg/mL
O=C(NNC(=O)c1ccncc1)Nc1ccc(Br)cc1Br,Mycobacterium kansasii,MIC100,broth dilution,21 d,My 235/80,>125 µM
CC1(C)N=C(N)N=C(N)N1OCCCOc1cc(Cl)c(Cl)cc1Cl,Mycobacterium avium complex,MIC,-,-,516,2 µg/mL
O=C(NNC(=O)c1ccncc1)Nc1ccc(F)cc1Br,Mycobacterium kansasii,MIC100,broth dilution,7 d,My 235/80,>125 µM
CC[C@H]1OC(=O)[C@H](C)[C@@H](OC2C[C@@](C)(OC)[C@@H](O)[C@H](C)O2)[C@H](C)[C@@H](O[C@@H]2O[C@H](C)C[C@H](N(C)C)[C@H]2O)C(C)(O)C[C@@H](C)/C(=N\OCCC2CCCCC2)[C@H](C)[C@@H](O)[C@]1(C)O,Mycobacterium avium complex,MIC,-,-,20039 (clarithromycin-susceptible),3.13 µg/mL
Fc1cc(Nc2nnc(-c3ccncc3)o2)ccc1Br,Mycobacterium kansasii,MIC100,broth dilution,7 d,My 235/80,>125 µM
CC[C@H]1OC(=O)[C@H](C)[C@@H](O[C@H]2C[C@@](C)(OC)[C@@H](OC(C)=O)[C@H](C)O2)[C@H](C)[C@@H](O[C@@H]2O[C@H](C)C[C@H](N(C)C)[C@H]2OC(=O)NNCc2cccnc2)C(C)(O)C[C@@H](C)/C(=N\OCCCC2CCCCC2)[C@H](C)[C@@H](O)[C@]1(C)O,Mycobacterium avium complex,MIC,-,-,20096 (clarithromycin-resistant),1.56 µg/mL
Cc1nc2ccccn2c1C(=O)NCc1ccc(-c2ccccc2)cc1,Mycobacterium ulcerans,MIC50,fluorescence,-,-,0.1–1 µg/mL
O=C(NNC(=O)c1ccncc1)Nc1ccc(Br)cc1F,Mycobacterium kansasii,MIC100,broth dilution,7 d,My 6509/96,125 µM
Cc1nc2ccccn2c1C(=O)NCc1ccc2c(c1)OCO2,Mycobacterium ulcerans,MIC50,fluorescence,-,-,0.1–1 µg/mL
CCCCCCO/N=C1\[C@H](C)CC(C)(O)[C@H](O[C@@H]2O[C@H](C)C[C@H](N(C)C)[C@H]2O)[C@@H](C)[C@H](OC2C[C@@](C)(OC)[C@@H](O)[C@H](C)O2)[C@@H](C)C(=O)O[C@H](CC)[C@@](C)(O)[C@H](O)[C@H]1C,Mycobacterium avium complex,MIC,-,-,20096 (clarithromycin-resistant),6.25 µg/mL

A second listing of 2 rows from above:

| compound | organism | endpoint | read by | conditions | strain | value |
|---|---|---|---|---|---|---|
| O=C(NNC(=O)c1ccncc1)Nc1ccc(Br)cc1F | Mycobacterium kansasii | MIC100 | broth dilution | 7 d | My 6509/96 | 125 µM |
| CC[C@H]1OC(=O)[C@H](C)[C@@H](OC(=O)c2ccccc2)[C@H](C)[C@@H](O[C@@H]2O[C@H](C)C[C@H](N(C)C)[C@H]2O)C(C)(O)C[C@@H](C)/C(=N\OCCCOc2ccccc2)[C@H](C)[C@@H](O)[C@]1(C)O | Mycobacterium avium complex | MIC | - | - | 20092 (clarithromycin-resistant) | 6.25 µg/mL |

a–b is a range or a potency band. Rows are shuffled and stem from different studies. A number after MIC or MFC names an inhibition level or a share of isolates.